Measured values taken from article PMC4253628, “Antiviral effects against EV71 of pimprinine and its derivatives isolated from Streptomyces sp” (Virology Journal, 2014).

Experiments:
CVB3 = assay: Inhibition of CVB3-induced CPE in Hep-2 cells; settings: from Table 2
ADV-7 = assay: Inhibition of ADV-7-induced CPE in HeLa cells; settings: from Table 2

Row | SMILES | fold more active than ribavirin against CVB3 (CVB3) | fold more active than ribavirin against ADV-7 (ADV-7)
1 | CCCc1ncc(-c2c[nH]c3ccccc23)o1 [WS-30581 A] | approximately 7 fold | approximately 7 fold
2 | CCCCc1ncc(-c2c[nH]c3ccccc23)o1 [WS-30581 B] | approximately 7 fold | approximately 7 fold
